Source: PubChem BioAssay AID720580 (National Center for Advancing Translational Sciences (NCATS), 2013)
This is a selection; strong and weak results do not stand in their true shares. Results filed as inconclusive are left out. Active and inactive are the calls of the source. Calls come from the whole dose curve; tested in A549 cells.

assay: qHTS for Stage-Specific Inhibitors of Vaccinia Orthopoxvirus: Venus Reporter Primary qHTS; settings: Vaccinia virus Venus reporter expression, fluorescence; series mostly up to 36.5 µM; activity change, negative = inhibition: at the top concentration; note: nearly all actives have a fitted effect of over 30% in size
% is set by controls: 0 for no effect and ±100 for the full control effect; potency is the fitted concentration of half-maximal effect.

Compound	activity change, negative = inhibition	Potency
COc1ccc2nc(NP(=O)(c3ccccc3)c3ccccc3)sc2c1	inactive: -2.12%	–
O=P1(N(CCCl)CCCl)OCCCN1CCCl (centres undefined)	inactive: -5.16%	–
O=P1(N(CCCl)CCCl)Nc2ccccc2N1	inactive: 1.48%	–
Cc1cc(=O)[nH]c(N[N+](=O)[O-])n1	inactive: -18.2%	–
O=C(OC1CN2CCC1CC2)C12CC3CC(CC(C3)C1)C2 (centres undefined)	inactive: 62.7%	–
COc1ccccc1-c1ccccn1.O=[N+]([O-])c1cc([N+](=O)[O-])c(O)c([N+](=O)[O-])c1	inactive: -5.19%	–
COc1ccc(N/C(=N/P(=O)(N2CCOCC2)N2CCOCC2)N2CCOCC2)cc1	inactive: -8.3%	–
O=[N+]([O-])c1cc(Oc2ccc([N+](=O)[O-])cc2C(F)(F)F)cc([N+](=O)[O-])c1	inactive: -7.33%	–
Cc1ccc(OP(=O)(Nc2nccs2)Oc2ccc(C)cc2)cc1	inactive: -10.7%	–
COc1ccc(OP(C)(=O)Nc2ccccn2)cc1 (centres undefined)	inactive: -6.78%	–
COc1ccccc1OP(=O)(Nc1ccc(C)cn1)Oc1ccccc1OC	inactive: -5.34%	–
Clc1ccc(Cl)c(NC2=NCC(CBr)S2)c1 (centres undefined)	inactive: 0.199%	–
CN1CCCC(OC(=O)C(c2ccccc2)c2ccccc2)C1 (centres undefined)	inactive: -15.6%	–
O=[N+]([O-])c1cc2c(cc1[N+](=O)[O-])OCO2	inactive: -12.9%	–
CC(=O)OC1C(=O)OCC23CCC4(C)OC4C2OC2CC(OC(=O)C=CC=CC(=O)OCCC1C)C3(C)C21CO1 (centres undefined)	–	active: 2.51 µM
Cc1ccc(N/C(=N/P(=O)(N2CCOCC2)N2CCOCC2)N2CCOCC2)cc1	inactive: -12.9%	–
COc1ccccc1OP(C)(=O)Nc1ccc(Br)cc1 (centres undefined)	inactive: -13.3%	–
CN(C(=O)Cc1ccc(Cl)c(Cl)c1)[C@H]1CCCC[C@H]1N1CCCC1	inactive: -23.2%	–
COc1ccccc1OP(C)(=O)Nc1ccc(C)cc1C (centres undefined)	inactive: -9.71%	–
CP(=O)(Nc1ccccn1)Oc1ccccc1 (centres undefined)	inactive: -0.282%	–
CCc1ccc(OP(C)(=O)O)cc1	inactive: 5.32%	–
O=[N+]([O-])C1C(O)C(O)C([N+](=O)[O-])C(O)C1O (centres undefined)	inactive: 2.46%	–
CC(C)CC(=O)NC(Sc1ccc(Cl)cc1)C(Cl)(Cl)Cl (centres undefined)	inactive: -9.42%	–
Cc1c(NP(C)(=O)Oc2ccc(C(C)C)cc2)c(=O)n(-c2ccccc2)n1C (centres undefined)	inactive: -7.94%	–
Nc1cc(N)c2nonc2c1[N+](=O)[O-]	inactive: -1.64%	–

Compound	activity change, negative = inhibition	Potency
Oc1ccccc1CNc1ccccn1	inactive: -9.65%	–
Cc1ccc(NP(=O)(Oc2ccccc2F)Oc2ccccc2F)nc1	inactive: -10.3% [at 7.34 µM]	–
CN(C(=O)Cc1ccc(Cl)c(Cl)c1)[C@H]1CCCC[C@@H]1N1CCCC1	inactive	–
COc1ccccc1OP(C)(=O)Nc1ccc(C)c(C)c1 (centres undefined)	inactive: -17.7%	–
CCOP(=O)(Nc1ccccc1)OCC	inactive: -9.6%	–
COc1ccc(OP(C)(=O)Nc2ccccc2Br)cc1 (centres undefined)	inactive: -12.1%	–
CCCC1OP(N)(=O)OCC1CC (centres undefined)	inactive: 11.2%	–
O=C(O)c1ccccc1[As](=O)(O)O	inactive: -21.7%	–
CC(=O)Nc1ccc([As](=O)(O)O)cc1	inactive: 7.47%	–
Cc1cc(C)cc(OP(C)(=O)Nc2cccc(C(F)(F)F)c2)c1 (centres undefined)	inactive: -20.2%	–
CN(C)P(=O)(N(C)C)n1c(Nc2ccccc2)nnc1-c1ccccc1	inactive: -14.6%	–
O=P(Nc1nc2ccc(Cl)cc2s1)(c1ccccc1)c1ccccc1	inactive: -6.73%	–
CCN(N=Nc1nonc1N)c1nonc1N	inactive: 2.65%	–
CP(=O)(Nc1ccc(Cl)cc1Cl)Oc1ccccc1 (centres undefined)	inactive: -23.7%	–
Nc1cccc2ccc([As](=O)(O)O)cc12	inactive: -7.81%	–
Nc1c(O)cc([N+](=O)[O-])cc1[N+](=O)[O-]	inactive: -18.7%	–
O=C(Nc1cc([As](=O)(O)O)ccc1O)c1ccccc1	inactive: 0.0581%	–
O=P(/N=c1/nc(-c2ccccc2)n(-c2ccccc2)s1)(Nc1ccccc1)Nc1ccccc1	inactive: -22%	–
CCOC(=O)c1ccc(NP(C)(=O)Oc2ccc(Cl)cc2)cc1 (centres undefined)	inactive: -9.69%	–
Cc1cc(C=O)ccc1N(CCCl)CCCl	inactive: 0.853%	–
O=P1(N(CCCl)CCCl)OCCCS1 (centres undefined)	inactive: 1.51%	–
COC(=O)C1(C)COP(=O)(Nc2ccccc2)OC1 (centres undefined)	inactive: -11.2%	–
O=C(O)CNc1ccc([As](=O)(O)O)cc1	inactive: 0.918%	–
OCCSCCO	inactive: -7.09%	–
O=C(OCCCN1CCCC1)C(O)(c1ccccc1)C1CCCCC1 (centres undefined)	inactive: -15.2%	–

Compound	activity change, negative = inhibition	Potency
COc1ccccc1OP(C)(=O)Nc1c(C)n(C)n(-c2ccccc2)c1=O (centres undefined)	inactive: -5.06%	–
O=[N+]([O-])c1cccc2n[nH]nc12	inactive: 0.929%	–
CC(=O)N1C2C3N(C(C)=O)C1C1N(C(C)=O)C(C(N1C(C)=O)N3C(C)=O)N2C(C)=O	inactive: -15.4%	–
CCc1nc2c(n1)c1c(non1O)c1c2no[n+]1[O-]	inactive: -15.1%	–
CCc1ccc(OP(C)(=O)Nc2cccnc2)cc1 (centres undefined)	inactive: -3.71%	–
CP(=O)(Oc1ccccc1)N1CCOC1=O (centres undefined)	inactive: -3.34%	–
Cc1ccc(NP(=O)(Oc2ccccc2)Oc2ccccc2)nc1	inactive: -8.86%	–
COc1ccc(OP(C)(=O)Nc2ccc(Br)cc2)cc1 (centres undefined)	inactive: -13.9%	–
COc1ccc(C2=NCC(CBr)S2)cc1 (centres undefined)	inactive: -11.7%	–
CN(C)C(=O)OCCc1n(C)cc[n+]1C	inactive: -2.01%	–
CC(C)=N/N=C(\N)N[N+](=O)[O-]	inactive: -7.83%	–
COc1cc([N+](=O)[O-])c([N+](=O)[O-])cc1OC	inactive: -5.53%	–
CC(C)c1nc(Nc2ccccc2)n(P(=O)(N(C)C)N(C)C)n1	inactive: -13.8%	–
c1cc(-c2nn[nH]n2)ccc1-c1nn[nH]n1	inactive: -5.22%	–
CC1CCN(C(=O)Oc2c(Cl)cc(Cl)c3cccnc23)CC1	inactive: -21.8%	–
CC(=O)C1=CCCC2CCC1N2 (centres undefined)	inactive: -8.94%	–
Nc1ccc([As](=O)(O)c2ccc(N)cc2)cc1	inactive: -2.81%	–
COc1ccccc1OP(C)(=O)Nc1ccccc1Br (centres undefined)	inactive: -5.43%	–
CP(=O)(Nc1ccc(Cl)cc1)Oc1ccc(F)cc1 (centres undefined)	inactive: -17.6%	–
CCN(/C(=N/P(=O)(N1CCOCC1)N1CCOCC1)N1CCOCC1)c1ccc(OC)cc1	inactive: 1.73%	–
CCOP(C)(=S)SCC(=O)NC(C)(CC)C(=O)O (centres undefined)	inactive: -5.31%	–
c1nnnn1CCn1cnnn1	inactive: -0.434%	–
CC(C)C(=O)NC(Sc1ccccc1)C(Cl)(Cl)Cl (centres undefined)	inactive: -1.58%	–
O=P(Nc1nccs1)(c1ccccc1)c1ccccc1	inactive: -16.1%	–
CCN(CCCl)Cc1ccccc1C	inactive: 0%	–

Compound	activity change, negative = inhibition	Potency
Cc1ccccc1NP(C)(=O)Nc1ccccc1C	inactive: -7.79%	–
COc1cccc([N+](=O)[O-])c1[N+](=O)[O-]	inactive: -15.7%	–
O=[N+]([O-])c1cc([N+](=O)[O-])c(C(F)(F)F)c([N+](=O)[O-])c1O	inactive: -4.82%	–
CP(=O)(Nc1ccc2c(c1)OCCO2)Oc1ccccc1 (centres undefined)	inactive: -12.4%	–
C[C@H]1OP(=O)(Oc2ccccc2)[C@H](O)[C@H](O)[C@H]1N=[N+]=[N-] (some centres undefined)	inactive: -3.57%	–
CN(C)CCOC(=O)C(O)(c1ccccc1)C1CCCCC1 (centres undefined)	inactive: -9.41%	–
O=P(Nc1nc2ccccc2s1)(c1ccccc1)c1ccccc1	inactive: -2.09%	–
COc1ccc(NP(C)(=O)Oc2ccccc2OC)cc1 (centres undefined)	inactive: -4.27%	–
CC1=CC2OC3CC4OC(=O)C=CC=CC(=O)OCCC(C)C(O)C(=O)OCC2(CC1O)C4(C)C31CO1 (centres undefined)	–	active: 2.82 µM
COc1ccc(N)c([N+](=O)[O-])c1[N+](=O)[O-]	inactive: -8.41%	–
O=P(Nc1ccccn1)(c1ccc(Br)cc1)c1ccc(Br)cc1	inactive: -0.0615%	–
CN(C)C1(CNC(=O)c2ccc(Cl)c(S(N)(=O)=O)c2)CCCCC1	inactive: -6.72%	–
Nc1ccc([As](=O)(O)c2ccc([N+](=O)[O-])cc2)cc1	inactive: -8.18%	–
C(Cc1nn[nH]n1)Cc1nn[nH]n1	inactive: -8.23%	–
O=[N+]([O-])c1ccc(OP2(=O)COCCO2)cc1 (centres undefined)	inactive: 7.35%	–
O=[N+]([O-])c1ncn(CCn2cnc([N+](=O)[O-])n2)n1	inactive: -2.5%	–
Cc1cc(-c2cccc3ccccc23)c(C)cn1.O=[N+]([O-])c1cc([N+](=O)[O-])c(O)c([N+](=O)[O-])c1	inactive: -24.1%	–
CCOC(=O)c1ccc(NP(C)(=O)Oc2ccc(F)cc2)cc1 (centres undefined)	inactive: -0.696%	–
O=P1(N(CCCl)CCCl)OCCC2CCCCN21 (centres undefined)	inactive: -3.37%	–
COc1ccc(OP(C)(=O)Nc2ccc(SC(F)(F)F)cc2)cc1 (centres undefined)	inactive: -15.8%	–
CCNC(=S)/N=C(\N)N[N+](=O)[O-]	inactive: -2.64%	–
O=C(NC1CCS(=O)(=O)C1)NP(=S)(Oc1ccccc1)Oc1ccccc1 (centres undefined)	inactive: -5.71%	–
Cc1ccc(NP(=O)(Oc2cccc(C)c2)Oc2cccc(C)c2)nc1	inactive: 3.48%	–
O=[N+]([O-])c1cc([N+](=O)[O-])c2nc[nH]c2c1	inactive: -14.4%	–
c1ccc(-c2nn[nH]n2)c(-c2nn[nH]n2)c1	inactive: -7.14%	–

Compound	activity change, negative = inhibition	Potency
CP(=O)(Nc1ccccc1)Oc1ccc(F)cc1 (centres undefined)	inactive: -9.73%	–
CN(C)C(=O)Oc1noc2ccccc12	inactive: 8.22% [at 7.34 µM]	–
O=c1c2cc([N+](=O)[O-])ccc2[nH]c2c([N+](=O)[O-])cc([N+](=O)[O-])cc12	inactive: -6.98%	–
Cc1ccccc1OP(=O)(Nc1ccccn1)Oc1ccccc1C	inactive: -11.7%	–
CC(=O)NC(SC(=S)N(CC(C)C)CC(C)C)C(Cl)(Cl)Cl (centres undefined)	inactive: -11.8%	–
Cc1ccc(OP(=O)(Nc2ccccn2)Oc2ccc(C)cc2)cc1	inactive: -2.44%	–
Cc1c([N+](=O)[O-])cc([N+](=O)[O-])c(Br)c1[N+](=O)[O-]	inactive: -2.28%	–
COC(=O)c1cc2c(s1)N=C(c1ccccc1)N(C)P2(=O)N1CCOCC1 (centres undefined)	inactive: -9.77%	–
CCC(=O)N1C2C3N(C(=O)CC)C1C1N(C(=O)CC)C(C(N1C(=O)CC)N3C(=O)CC)N2C(=O)CC	inactive: -10.7%	–
O=C(OC1CN2CCC1CC2)c1ccccc1 (centres undefined)	inactive: -6.52%	–
CP(=O)(Nc1ccccc1F)Oc1ccccc1 (centres undefined)	inactive: -6.88%	–
CCc1cc(O)c([N+](=O)[O-])c(C)c1[N+](=O)[O-]	inactive: -15%	–
CC(C)c1ccc(OP(C)(=O)Nc2ccc(SC(F)(F)F)cc2)cc1 (centres undefined)	inactive: -29.4%	–
CC(C)(C)C(=O)NC(Sc1ccccc1)C(Cl)(Cl)Cl (centres undefined)	inactive: -9.23%	–
CCOc1ccc(C2=NCC(CBr)S2)cc1 (centres undefined)	inactive: -6.28%	–
O=P1(Nc2nc3ccc(Cl)cc3s2)COc2ccccc2O1 (centres undefined)	inactive: -8.61%	–
CC(=O)Nc1ccc([As](=O)(O)O)c(O)c1	inactive: 3.75%	–
COC(=O)C1(C)COP(=O)(NCc2ccccc2)OC1 (centres undefined)	inactive: -9.69%	–
N#C/C(=C\c1ccc(N(CCBr)CCBr)cc1)C(N)=O	inactive: -29.8%	–
CC(=O)c1ccc(N2CC2c2ccncc2)cc1 (centres undefined)	inactive: -10.2%	–
C[C@@H]1C=CCP(=O)(Oc2ccccc2)O1 (some centres undefined)	inactive: 1.15%	–
C[C@H]1OP(=O)(Oc2ccccc2)C[C@@H]2O[C@@H]21 (some centres undefined)	inactive: 2.61%	–
Cc1ccccc1CN(C)C(=O)COC(=O)C(O)(c1ccccc1)c1ccccc1	inactive: -25%	–
O=C(OCCN1CCN(CCOCc2ccccc2)CC1)C(O)(c1ccccc1)c1ccccc1	inactive: -14.4%	–
